# The supplement of paper PMC9931576
# Substitutions are numbered along the chain they refer to. Human monoclonal antibodies against the spike receptor-binding domain (heavy:light variable regions). IC50 against pseudoviruses bearing the spike of naturally observed variants; lower = stronger; >10 µg/ml means not reached at the top dose. No active / inactive call. The stated detection limit is 0.0005 µg/ml; values near or below 0.001 µg/ml lie at the floor of the assay.
# B1: XGv-279 (protein)
# chain 1: QVQLQESGPGLVKPSETLSLTCTVSGGSISSYYWSWIRQPPGKGLEWIGYFYSSGNTNYKPSLKSRVTISVDTSKNQLSLRLSSVTAADTAVYYCARYSKEDSQGYVSNYFFDYWGQGTLVTVSS
# chain 2: QSALTQPASVSGSPGQSITISCTGTSSDVGSFNLVSWYQQHPGTAPKLMIYDVSKRPSGVSNRFSGSKSGNTASLTISGLQAEDEAEYYCYSYAGSSTFVFGTGTQVTVL
# B2: XGv-251 (protein)
# chain 1: QVQLVQSGAEVKKPGSSVKVSCKASGGTFSSFTVNWVRQAPGQGLEWMGGIIPILNIPNYAQKFQGRVTISADKSTSTAYMELSSLRSEDTAVFYCAREGPYYESSGLQSNWFDSWGQGTLVTVSS
# chain 2: QSVLTQPPSVSGAPGQRVTISCTGSSSNIGAGYDVHWYQQLPRTAPKLLIYGNTNRPSGVPDRFSGSKSGTSVFLAITGLQAEDEADYYCQSYDSSLSGSVFGGGTKLTV
# B3: XGv-324 (protein)
# chain 1: QVQLVQSGAEVKKPGSSVKVSCKTSGGTFNTYAINWVRQAPGQGLEWMGRIIPVLGVATSAQKFQGRVTITADKSTITAFMELSSLRSEDTAVYYCARGIVGPTPGWFDFWGQGTLVTVSS
# chain 2: EIVMTQSPATLSVSPGERATLSCRASQSVSSDLAWYQQKPGQAPRLLIYGASTRATGVPARFSGSGSGTEFTLSISSLQSEDFAVYYCQQYNNGQTFGQGTTVDIK
# B4: XGv-291 (protein)
# chain 1: QVQLVQSGAEVKKPGASVEISCKASGYSFTKYYVHWVRQAPGQGLEWMGIVNPNGGASYAQKFQGRVTMTSDTSTTTFYMEVSGLRSDDTAVYYCARAEGSSWLGWFDPWGQGTLVTVSS
# chain 2: QSVLTQPPSASGTPGQRVTISCSGSTSNIGSKDVYWYQQLPGTAPKLLIYRNNQRPSGAPDRFSASKSGTSASLAISGLRSEDEADYYCAVWDDGLSASGWLFGGGTKLTVL
# B5: XGv-294 (protein)
# chain 1: QVQLVQSGAEVKKPGASVKVSCKASGYTFTRHYIHWVRQAPGQGLEWMGIINPSGGGASYAQKFQGRVTMTRDTSTSTVYMEVSSLRYEDTAVYYCARAEGGSWLGWFDPWGQGTLVTVSS
# chain 2: QSVLTQPPSASGTPGQRVTISCSGGSSNIGNNYVYWYQQLPGTAPKLLIYGNNQRPSGVPDRFSGSKSGTSASLAISGLRSEDEADYHCAAWDDGLSGSGWVFGGGTKLT
# B6: XGv-282 (protein)
# chain 1: QVQLVQSGAEVKKPGSSVKVSCKASGDTFSSYTFSWVRQAPGQGLEWMGRSIPIVGKAIYAQEFQGRVTISADRSTTTVYMELSSLRSDDTAVYYCARDQSGFDFFYYDHWGQGTLVAVSS
# chain 2: QSVLTQPPSASGTPGQRVTISCSGSGSNIGSNTINWYQQLPGTAPKVLIYRNNERPSGVPDRFSGSKSGTSASLTISGLQSEDEAYYHCAAWDDSLNGPVFGGGTKLTVL
# B7: XGv-292 (protein)
# chain 1: QVQLVQSGAEVKKPGASVKVSCKASGYTFTNYYMHWVRQAPGQGLEWMGIINPSGISASYAQRFQGRVTMTRDTSTSTFYMEMRSLRSEDTAVYYCARAEGSSWLGWFDPWGQGTLVTVSS
# chain 2: QSVLTQPPSASGTPGQRVTISCSGSSSNIGSHYVYWYQQLPGEAPKLLIYRNNQRPSGVPDRFSGSKSGTSASLAISGLRSEDEADFYCAVWDDGLSGSGWVFGGGT
# B8: XGv-289 (protein)
# chain 1: QVQLVQSGAEVKKPGASLKVSCRASGYTFTSHFIHWVRQAPGQGLEWMGIINPSGGASYAQNFRDRVTMTTDPSTSTVYMELGSLRSEDTAVYYCARAEGSSWLGWFDPWGQGTLVTVSS
# chain 2: QSVLTQPPSASGTPGQRVTIPCSGSSSNIGNNYVYWYQQLPGTAPKLLVYGNNQRPSGVPDRFSVSKSGTSASLAISGLRSEDEADYYCAAWDDGLSGSGWVFGGGTKLTVL
# B9: XGv-295 (protein)
# chain 1: QVQLVQSGAEVKKPGASVKVSCKASGYIFTNYYIHWVRQAPGQGLEWMAIFNPSAATASYAQKFQGRVTMTRDTSTTTVYMELRSLRFDDTAVYYCARAEGTSWLGWFDPWGQGTLVTVSS
# chain 2: B8 chain 2 with I20V, P21S, N31S, N32H, Y33D, V49I, G51K, N53D, V65G, K67T
# B10: XGv-293 (protein)
# chain 1: QVQLVQSGAEVKKPGASVKVSCKASGYTFTSYFLHWVRQAPGQGLEWLGIIDPSGGASYAQKFQGRVTMTSDTSTSTVYMDLGSLRSEDTAVYYCARAEGTSWLGWFDPWGQGSLVTVSS
# chain 2: B8 chain 2 with P21S, N31T, V49I, G51R, N53Y, V65G, D86E, D94N
# B11: XGv-263 (protein)
# chain 1: QVQLVQSGTELKKPGASVKVSCKAFGYTFSSYGISWVRQAPGQGLEWMGWISGNNGNTNYAQKFQGRVTMTTDTSTSTAYMDLRSLRSDDTAVYYCARGVYCSAANCVRASTRISHYYYMDVWGKGTTVTVSS
# chain 2: NFMLTQPHSVSESPGKTVTISCTRSSGSIASHYVQWYQQRPGSYPTTVIYEDDQRPSGVPDRFSGSIDSSSNSASLTISGLKTEDEADYYCQSYDSSFSWVFGGGTKLTV
# B12: XGv-298 (protein)
# chain 1: EVQLVESGGGLMQPGGSLRLSCAASGFIVSRNYMNWVRQAPGKGLEWVSVIYSGGTTDYADSVKGRFTVSRDNSMNTLYLQMNSLRAEDTAVYYCARDLVVFGMDVWGQGTTVTVSS
# chain 2: DIQLTQSPSSLSASVGDRVTITCRASQGISSYLAWYQQKPGKAPKLLIYAASTLQSGVPSRFSGSGSETDFTLTISSLQPEDFATYYCQHLNGYPLTFGGGTKVEIK
# Biological target: SARS-CoV-2 Omicron BA.1 spike pseudovirus
# Assay: pseudovirus neutralization IC50; higher = weaker neutralization
# Protocol: (§1)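 Single-round VSV luciferase pseudovirus mixed with antibody dilutions for 1 h and put on Huh-7 cells for about a day; IC50 from the dose curve.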
row,Binder,pseudovirus neutralization IC50 [µg/mL]
1,B1,6.76
2,B2,0.407
3,B3,> 10
4,B4,0.0519
5,B5,> 10
6,B6,3.33
7,B7,1.17
8,B8,0.0162
9,B9,0.16
10,B10,0.00366
11,B11,> 10
12,B12,> 10

# Biological target: SARS-CoV-2 Omicron BA.2 spike pseudovirus
# Assay: as above
# Protocol: as §1
row,Binder,pseudovirus neutralization IC50 [µg/mL]
1,B1,4.99
2,B2,0.35
3,B3,> 10
4,B4,0.0118
5,B5,> 10
6,B6,0.000965
7,B7,0.823
8,B8,0.0145
9,B9,0.00831
10,B10,0.00201
11,B11,0.0124
12,B12,> 10

# Biological target: SARS-CoV-2 Omicron BA.2.75 spike pseudovirus
# Assay: as above
# Protocol: as §1
row,Binder,pseudovirus neutralization IC50 [µg/mL]
1,B1,4.46
2,B2,0.24
3,B3,> 10
4,B4,0.022
5,B5,> 10
6,B6,0.0276
7,B7,1.36
8,B8,0.0168
9,B9,0.122
10,B10,0.00307
11,B11,2.61
12,B12,> 10

# Biological target: SARS-CoV-2 Omicron BA.5 spike pseudovirus
# Assay: as above
# Protocol: as §1
row,Binder,pseudovirus neutralization IC50 [µg/mL]
1,B1,> 10
2,B2,> 10
3,B3,> 10
4,B4,0.00859
5,B5,> 10
6,B6,0.000938
7,B7,0.506
8,B8,0.0177
9,B9,0.00839
10,B10,0.00193
11,B11,2.33
12,B12,> 10

# Biological target: SARS-CoV-2 Omicron BQ.1.1 spike pseudovirus
# Assay: as above
# Protocol: as §1
row,Binder,pseudovirus neutralization IC50 [µg/mL]
1,B1,> 10
2,B2,> 10
3,B3,> 10
4,B4,0.229
5,B5,> 10
6,B6,0.0374
7,B7,> 10
8,B8,0.991
9,B9,0.049
10,B10,0.0158
11,B11,> 10
12,B12,> 10

# Biological target: SARS-CoV-2 Omicron XBB spike pseudovirus
# Assay: as above
# Protocol: as §1
row,Binder,pseudovirus neutralization IC50 [µg/mL]
1,B1,> 10
2,B2,> 10
3,B3,> 10
4,B4,> 10
5,B5,> 10
6,B6,> 10
7,B7,> 10
8,B8,> 10
9,B9,> 10
10,B10,> 10
11,B11,> 10
12,B12,> 10

# Biological target: SARS-CoV-2 early D614G spike pseudovirus
# Assay: as above
# Protocol: as §1
row,Binder,pseudovirus neutralization IC50 [µg/mL]
1,B1,0.00548
2,B2,0.302
3,B3,0.00272
4,B4,0.00243
5,B5,0.0185
6,B6,0.00228
7,B7,0.0237
8,B8,0.00115
9,B9,0.0019
10,B10,0.00112
11,B11,0.00242
12,B12,0.0062
